Results taken from patent publication US20070009547A1 (INSTITUT PASTEUR, published 2007).

Target: ESAT-6 with a C-terminal hexahistidine tag, produced by recombinant BCG::2F9-EsxA-HIS (M. tuberculosis, UniProt P0A565 2-95)

B1: 10 kDa culture filtrate protein (CFP-10), encoded by esxB (other)
chain: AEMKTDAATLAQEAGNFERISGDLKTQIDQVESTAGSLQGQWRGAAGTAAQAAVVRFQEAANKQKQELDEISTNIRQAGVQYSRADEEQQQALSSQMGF
- binding result: binds
